Holding throughout (test): pseudovirus neutralization IC50; higher = weaker neutralization
Test [1] concerns the target SARS-CoV-2 Omicron BA.1 spike pseudovirus. The method, then:
(§1)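 Single-round VSV luciferase pseudovirus mixed with antibody dilutions for 1 h and put on Huh-7 cells for about a day; IC50 from the dose curve.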

Test [2] deals with SARS-CoV-2 Omicron BA.2 spike pseudovirus. The method, then: as §1
Test [3] deals with SARS-CoV-2 Omicron BA.2.75 spike pseudovirus. The protocol:
as §1

Test [4] concerns the target SARS-CoV-2 Omicron BA.5 spike pseudovirus. The method, then: as §1
The target of test [5] is SARS-CoV-2 Omicron BQ.1.1 spike pseudovirus. The method, then: as §1
For test [6], the target named is SARS-CoV-2 Omicron XBB spike pseudovirus. The protocol:
as §1

Test [7] concerns the target SARS-CoV-2 early D614G spike pseudovirus. The method, then: as §1

Human monoclonal antibodies against the spike receptor-binding domain (heavy:light variable regions). IC50 against pseudoviruses bearing the spike of naturally observed variants; lower = stronger; >10 µg/ml means not reached at the top dose. No active / inactive call. The stated detection limit is 0.0005 µg/ml; values near or below 0.001 µg/ml lie at the floor of the assay. Bounds are passed on as bounds.

Here are results for twelve molecules from the supplement of paper PMC9931576.

B1: BD55-6078 (protein)
chain 1: QLQLQESGPGLVKPSETLSLTCTVSGGSISGSFYYWAWIRQPPGKGLEWIGSIDYSGSTHYNPSLKSRLTMSVDTSRNHFSLKLSSVSAADTALYYCAGHSQWFVPYWSFDLWGRGSLVSVSS
chain 2: SCVLTQPPSVSVAPGKTARISCGLDNIGSKTVHWYMQKPGRAPVLVFYDGSGRPSGSPDRFSGSSSGNTATLTISRVDAGDEADYYCQVWDSSCDVVFGGGTKLTVL
Regarding B1, the “pseudovirus neutralization IC50” value in test [1], in test [2], in test [3], in test [4], in test [5] and in test [6] was above 10 µg/mL throughout. Besides, in test [7], the “pseudovirus neutralization IC50” value was 0.707 µg/mL.

B2: BD55-6103 (protein)
chain 1: QLQLQESGPGLVKPSETLSLTCTVSGGSVSSRSYYWGWIRQPPGKGLEWIGTIYYSGSAQYNPSLKSRVTISVDTSKNQFSLRLSSVTAADTAVYYCARYGGGDAYFDYWGQGTLVTVS
chain 2: DIQMTQSPSTLSASVGDRVTITCRASQSINRWLAWYHQKPGKAPRLLIYMASLLESGVPSRFSGSGSGTEFTLTISSLQPDDFATYYCQQYNSYPYTFGQGTKLEIR
For the molecule B2, the “pseudovirus neutralization IC50” value in test [1], in test [2], in test [3], in test [4], in test [5] and in test [6] was above 10 µg/mL each time. Moreover, in test [7], the “pseudovirus neutralization IC50” value is 0.611 µg/mL.

B3: BD55-6092 (protein)
chain 1: QVHLQESGPGLVKPSETLSLTCSVSGDSVTSGDFRWSWIRQPPGKGLEWIGSFYYIGTTEYNPSLKSRVSISVDTSANQLSLDLNSVTAADTALYYCARLPAFSGYDLWASGDYWGRGTLVIVSS
chain 2: EIVLTQSPGTLSLSPGERATLSCRASQSVGSNYLAWHQHKPGQAPRLLIYEASSRATGIPDRFSGSGSGTDFTLTISRLEPEDFAVYYCQQYVTSPWTFGQGTKVEIK
For the molecule B3, the “pseudovirus neutralization IC50” value in test [1], in test [2], in test [3], in test [4], in test [5] and in test [6] was above 10 µg/mL each time. Also, in test [7], the “pseudovirus neutralization IC50” value was 0.637 µg/mL.

B4: BD55-1171 (protein)
chain 1: QVHLVQSGTEVKRPGASVKVSCKASGYLFTGYHMHWVRQAPGQGLEWMGWINPMSGATKYARKFQGRVTLTRDTSVTTVYMELSRLRSDDSAVYYCARDTSFSVTTPDDAFDVWGQGTMVTVSS
chain 2: QSLLTQPPSVSGAPGQRVTISCTGSSSNIGAGYVVHWYQQLPGTAPKLLIYDNSSRPSGVPDRFSASKSGASASLAITGLQAEDEANYYCQSFDISLSLWVFGGGTKLTVL
As to B4, the “pseudovirus neutralization IC50” value in test [1], in test [2], in test [3], in test [4], in test [5] and in test [6] was above 10 µg/mL in each case. Besides, the “pseudovirus neutralization IC50” value in test [7] was 0.00172 µg/mL.

B5: BD55-6203 (protein)
chain 1: QVQLVQSGAEVKKPGASVKVSCKASGYTFTDYYIHWVRQAPGQGLEWMAWIDPHSGDTDLVEKFRGRVTLSWDTSITTAYMELSRLKSDDTAVYFCARDLSGADVYGDSYWGQGSLVIVSS
chain 2: SSELTQDPAVSVALGQTVRITCQGDSLRNFYASWYQQKPGQAPVLVMYGKNHRPSGPADRFSGSRSGNTTLLTITGAQAEDEGDYYCNCRDSSGNHWVFGGGTKLTVL
Turning to B5, the “pseudovirus neutralization IC50” value in test [1], in test [2], in test [3], in test [4], in test [5] and in test [6] was above 10 µg/mL in each case. The “pseudovirus neutralization IC50” value in test [7] was 0.0269 µg/mL.

B6: BD55-6210 (protein)
chain 1: QVQLVESGGGVVQPGRSLRLSCAASGFTFSDYGMHWVRQAPGKGLEWVAVISFDEKNTDHADSVKGRFTISRDNSKNTLYLQMNSLRPEDTAVYYCAKDRYDSSFYSLPYYYYYGMDVWGQGTTVTVSS
chain 2: DIQMTQSPSSLSASVGDRVTITCQASQDISNYLNWYQQKPGKAPKLLIYDAFTLQRGVPSRFSGSRSGTDFTFTISSLQPEDIATYYCQQYDNLPQTFGQGTKLEIK
B6: the “pseudovirus neutralization IC50” value in test [1], in test [2], in test [3], in test [4], in test [5] and in test [6] was above 10 µg/mL each time. Besides, the “pseudovirus neutralization IC50” value in test [7] stood at 6.01 µg/mL.

B7: BD55-6079 (protein)
chain 1: EVKLVESGGGLAQPGGSLRLSCAASGFTFTNYDMHWVRQRAGKGLEWVSSIGSAGDTYYAASVKGRFTISRETDLYLQMSDLRVGDTAVYYCTRVGYGDYDLLGMDVWGQGTMVTVSS
chain 2: SYDLTQPPSVSVSPGQTARITCSGDALPRMYVYWYHQKPGQAPVMLIYKDSERPSGIPERISGSTSGTTVTLTISGVLAEDEGDYYCQTLDSGGSVFGGGTKLTVL
With B7, the “pseudovirus neutralization IC50” value in test [1], in test [2], in test [3], in test [4], in test [5] and in test [6] was above 10 µg/mL throughout. Further, the “pseudovirus neutralization IC50” value in test [7] was above 10 µg/mL.

B8: BD55-6099 (protein)
chain 1: QVQLEQSGAEVKKPGASVKVSCKVSGYTLTELSMHWVRQAPGKGLEWMGSFDPEDGDTIYAQNFQGRVTITEDTSTDTAYMELSSLRSDDTAVYYCATSGRYEYVWGTYRPRAFVIWGQGTMVTVSS
chain 2: QSALTQPPSASGSPGQSVTISCTGTSSDIGTYNYVSWYQQHPGKAPKLIIYEVSKRPSGVPDRFSGSKSGNSASLTVSGLQAEDEADYYCSSYAISLTSLYVFGTGTKVTVL
On to B8, for which the “pseudovirus neutralization IC50” value in test [1], in test [2], in test [3], in test [4], in test [5] and in test [6] was above 10 µg/mL each time. For the same molecule, in test [7], the “pseudovirus neutralization IC50” value is above 10 µg/mL.

B9: BD55-6090 (protein)
chain 1: VQLVESVGGLAQPGGSLRLSCAASGFTFSKFWMTWVRQAPGKGLEWVANINQDGTETFYADSVKGRFTISRDNAKNSLDLQMNTLRVEDTAVYYCARVDGYRTGGHYVLDYYMDVWGKGTTVTVSS
chain 2: SYELTQPSSVSVSPGQTARITCSGDALARQYVYWYQQKSGQAPVLMIYKDRERPSGIPERFSGSTSGTIVTLTISGVQAEDEADYYCQSADSSGTNMIFGGGTKLTVL
For B9, the “pseudovirus neutralization IC50” value in test [1], in test [2], in test [3], in test [4], in test [5] and in test [6] was above 10 µg/mL throughout. Moreover, the “pseudovirus neutralization IC50” value in test [7] is above 10 µg/mL.

B10: BD55-6106 (protein)
chain 1: QLQLQESGPGLVKPSETLSLTCTISGGSMSSSSYYWGWIRQPPGKGLEWIGSIYYTGTTYYNPSLKSRVTISVDTSGKQFSLKLRSVTAADTAVYYCARHRGSGSYYGLDYWGQGTLVTVSS
chain 2: DIQMTQSPSSVSASVGSTVTITCRASQDISSWLVWYQQKPGKAPKLLIYSASNLQSGVPSRFSGSGSGTDFTLVISSLQPEDFATYYCQQANSFPLTFGGGTRVDIK
Take B10: the “pseudovirus neutralization IC50” value in test [1], in test [2], in test [3], in test [4], in test [5] and in test [6] was above 10 µg/mL in each case. For the same molecule, in test [7], the “pseudovirus neutralization IC50” value is above 10 µg/mL.

B11: BD55-6208 (protein)
chain 1: EVQLVESGGGLVQPGGSLRLSCAASGFTFSTHYIHWVRQAPGKGLEYLSAVSADGHSTYYAKSVKGRFSISRDNSKNTVYLQMGSLKAEDMGVYYCARDLEYSAWRGTGMGVWGHGTTVTVSS
chain 2: QSVLTQPPSVSGAPGQRVTISCTGSNSNIGAGYDVHWYQQLPGAAPQLLIYGSTNRPSGVPDRFSGSKSGSSASLAITGLQAEDEGDYYCQSYDGSLSGHVVFGGGTKLSVL
On to B11, for which the “pseudovirus neutralization IC50” value in test [1], in test [2], in test [3], in test [4], in test [5] and in test [6] was above 10 µg/mL each time. The “pseudovirus neutralization IC50” value in test [7] came to 0.0195 µg/mL.

B12: BD55-6077 (protein)
chain 1: QVTLKESGPVLVKPTETLTLTCTVSGFSLSDAKLGVTWIRQPPGKALEWLALIFSNDDKSYSTSLESRLTISKDTSKSQVVLTMTNMDPVDTATYYCARLQTETYYYDSSGYYFDYWGQGTLVTVSS
chain 2: YELTQPPSVSVSPGQTARITCSGDALPMQWAYWYQQRPGQAPVVIIYKDSERPSGIPERFSGSSSGTTVTLTISGVQAEDEADYYCQSADSRGTVFGGGTKLTVL
With B12, the “pseudovirus neutralization IC50” value in test [1], in test [2], in test [3], in test [4], in test [5] and in test [6] was above 10 µg/mL throughout. Besides, the “pseudovirus neutralization IC50” value in test [7] was above 10 µg/mL.
